B1: unnamed (parent)
chain 1: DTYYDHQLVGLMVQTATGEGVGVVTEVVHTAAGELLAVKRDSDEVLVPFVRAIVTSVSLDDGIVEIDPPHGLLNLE
chain 2: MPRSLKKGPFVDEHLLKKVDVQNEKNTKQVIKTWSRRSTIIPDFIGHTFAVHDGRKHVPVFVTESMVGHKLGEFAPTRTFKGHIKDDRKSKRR

Results on three variants are retold here after PMC8073977.

The variants in the experiment derive from B1. In words: SPR. As to conditions: with partner chain of the complex shown; parent: 2.16e+03 nM.
For chain 1 E34A, the Kd amounted to 3.82 µM.
As for chain 1 E26A, the figure is 5.16 µM.
As for chain 1 E44A, the Kd came out at 5.05 µM.

For orientation: Kd means the constant that tells how readily two partners part at equilibrium.
